# The list shows a part of the results. Results filed as inconclusive are left out. Activity calls are given as the source filed them. Rule as the data show it: inconclusive = inhibition above about 70% without an active follow-up result; inactive = below that.
# Experiment: M. tuberculosis growth inhibition, HTS (AID 449762);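 also: bacterial growth assessed after seven days of incubation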
# Conditions: M. tuberculosis H37Rv growth inhibition, 7H9 media; at 25 µM; active compounds read high
row,Compound,inhibition
1,O=P(Nc1nccs1)(Oc1ccccc1)Oc1ccccc1,inactive: 1.41%
2,O=P(Nc1nccs1)(c1ccccc1)c1nc2ccccc2s1 (configuration not stated),inactive: -0.52%
3,CCOP1(=S)c2c(C)nn(CCC#N)c2N=C(c2ccccc2F)N1C (configuration not stated),inactive: 0.03%
4,CS(=O)(=O)c1cc([N+](=O)[O-])c2no[n+]([O-])c2c1,inactive: -10.4%
5,O=C(O)COc1ccc([As](=O)(O)O)cc1[N+](=O)[O-],inactive: 7.08%
6,Nc1ccccc1[As](=O)(O)c1ccccc1,inactive: 7.11%
7,NC(=O)Nc1ccc([As](=O)(O)O)cc1,inactive: -4.12%
8,CN(C(=O)Cc1ccccc1)[C@@H]1CC[C@]2(CCCO2)C[C@H]1N1CCCC1,inactive: -1.5%
9,CCOP1(=S)c2c(C)nn(CCC#N)c2N=C(c2ccc(F)cc2)N1C (configuration not stated),inactive: -1.67%
10,N#CCCN(C(=O)COC(=O)C(O)(c1ccccc1)c1ccccc1)c1ccc(F)cc1,inactive: -3.35%
11,CN(C(=O)Cc1ccc(Cl)c(Cl)c1)[C@H]1CC[C@@]2(CCCO2)C[C@@H]1N1CCCC1,inactive: -1.37%
12,COc1cc(C(=O)NCC2(N3CCOCC3)CCCCC2)ccc1OCC(C)C,inactive: 0.69%
13,O=[As](O)(c1ccc(O)cc1)c1ccccc1O,inactive: 4.69%
14,C[As](=O)(O)c1cccc(C(=O)O)c1,inactive: -1.97%
15,Cc1ccc(OP(=O)(Nc2ccc([N+](=O)[O-])cn2)Oc2ccc(C)cc2)cc1,inactive: 0.32%
16,Cc1ccc2nc3c(c(C)c2c1)CC(C(Cl)Cl)S3 (configuration not stated),inactive: 6.06%
17,ClCCSc1nnc(-c2cccnc2)o1,inactive: -4.4%
18,CC(C)c1ccc(OP(=O)(Nc2ccccn2)Oc2ccccc2F)cc1 (configuration not stated),inactive: 5.2%
19,CC(C)NC(=O)NP(=O)(Oc1ccccc1)Oc1ccccc1,inactive: -3.75%

row,Compound,inhibition
1,Cc1c2c(nc3ccccc13)SC(C(Cl)Cl)C2 (configuration not stated),inactive: 4.32%
2,Cc1cc(=O)[nH]c(N[N+](=O)[O-])n1,inactive: 4.02%
3,O=C(OC1CN2CCC1CC2)C12CC3CC(CC(C3)C1)C2 (configuration not stated),inactive: 7.66%
4,COc1cc(I)ccc1[As](=O)(O)O,inactive: -0.6%
5,COc1ccc2nc(NP(=O)(c3ccccc3)c3ccccc3)sc2c1,inactive: 2.76%
6,COc1ccc(N/C(=N/P(=O)(N2CCOCC2)N2CCOCC2)N2CCOCC2)cc1,inactive: -11.6%
7,COP1(=S)c2c(C)nn(CCC#N)c2N=C(c2ccc(F)cc2)N1C (configuration not stated),inactive: -1.77%
8,O=C(Nc1ccncc1[N+](=O)[O-])c1ccc([N+](=O)[O-])cc1[N+](=O)[O-],inactive: 7.2%
9,O=C(COc1ccccc1)OC1CN2CCC1CC2 (configuration not stated),inactive: -4.3%
10,O=C(OC1CN2CCC1CC2)c1cccc([N+](=O)[O-])c1 (configuration not stated),inactive: 1.96%
11,CCOC(=O)c1ccc(NC(=O)C(C)(CCl)SC)cc1 (configuration not stated),inactive: 6.77%
12,CCC(C)N(CC(C)C)C(=S)SC(NC(C)=O)C(Cl)(Cl)Cl (configuration not stated),inactive: -3.25%
13,CCOC(=O)Nc1ccc([As](=O)(O)O)c(O)c1,inactive: 8.63%
14,Cc1cc(SC(NC(=O)c2ccccc2)C(Cl)(Cl)Cl)nc(C(C)C)n1 (configuration not stated),inactive: -2.99%
15,CCOC(=O)Nc1cccc([As](=O)(O)O)c1,inactive: -0.89%
16,Cc1cc(SC(NC=O)C(Cl)(Cl)Cl)ncn1 (configuration not stated),inactive: 7.09%
17,O=P(Nc1ccccn1)(c1cccc2ccccc12)c1cccc2ccccc12,inactive: -5.68%
18,O=[N+]([O-])c1ccc(Nc2ccc(Oc3ccc([N+](=O)[O-])cc3[N+](=O)[O-])cc2)c([N+](=O)[O-])c1,inactive: 2.7%

# Reference: PubChem BioAssay AID449762 (Southern Research Specialized Biocontainment Screening …, 2010)
